Anti-infective test results gathered from many reports (values: NIAID ChemDB through PubChem).

Shared fields: target-level tests; organism: Hepatitis C virus; target: NS3/NS4A protease

Lines come from different laboratories, so protocols vary. Blank or dashed fields: not listed here. ICn: concentration for n% inhibition. a–b is a range or a potency band.

SMILES,read by,strain,endpoint,result
C=C[C@@H]1C[C@]1(NC(=O)[C@@H]1C[C@@H](Oc2cc(-c3ccccc3)nc3cc(OC)ccc23)CN1C(=O)[C@@H](NC(=O)OC(C)(C)C)C(C)C)C(=O)NS(=O)(=O)C1CCC1,-,BMS,IC50,<0.05 µM
C=CC1C[C@]1(NC(=O)[C@@H]1C[C@@H](Oc2cc(-c3ccccc3)nc3cc(OC)ccc23)CN1C(=O)[C@@H](NC(=O)OC(C)(C)C)C(C)(C)C)C(=O)NS(=O)(=O)c1cc([N+](=O)[O-])c(Cl)s1,-,BMS,IC50,<0.1 µM
C=C[C@H]1C[C@@]1(NC(=O)[C@@H]1C[C@@H](Oc2cc(-c3ccccc3)nc3cc(OC)ccc23)CN1C(=O)[C@@H](NC(=O)OC(C)(C)C)C(C)(C)C)C(=O)NS(=O)(=O)C1(Cc2cc(C)on2)CC1,-,BMS,IC50,<0.05 µM
CCC[C@H](NC(=O)[C@@H]1[C@@H](C2CCCCC2)CCN1C(=O)[C@H](NC(=O)[C@H](NC(=O)c1cnccn1)C1CCCCC1)C(C)(C)C)C(=O)C(=O)NC1CC1,-,Hepatitis C virus,Ki,0.1 µM
COc1cc(O[C@@H]2C[C@@H](C(=O)NC3(C(=O)NS(=O)(=O)C4CC4)CC34CC4)N(C(=O)[C@@H](NC(=O)OC(C)(C)C)C(C)(C)C)C2)c2ccc(-c3ccccc3)cc2n1,-,BMS,IC50,<0.05 µM
C=C[C@H]1C[C@@]1(NC(=O)[C@@H]1C[C@@H](Oc2cc(-c3ccccc3)nc3cc(OC)ccc23)CN1C(=O)[C@@H](NC(=O)OC(C)(C)C)C(C)(C)C)C(=O)NS(=O)(=O)C1(COC(C)C)CC1,-,BMS,IC50,<0.05 µM
Cc1ccccc1NC(=O)c1c(O)cc(O)c([N+](=O)[O-])c1O,HPLC,-,IC50,47.3 µg/mL
CC[C@@H](C=O)NC(=O)[C@@H]1C[C@@H](OCc2ccccc2)CN1C(=O)[C@@H](NC(=O)[C@@H](NC(=O)c1cnccn1)C(C)C)C(C)C,-,-,Ki,12 µM
C=CC1C[C@]1(NC(=O)[C@@H]1C[C@@H](Oc2cc(-c3ccccc3)nc3cc(OC)ccc23)CN1C(=O)[C@@H](NC(=O)OC(C)(C)C)C(C)(C)C)C(=O)NS(=O)(=O)c1sc(C)nc1C,-,BMS,IC50,<0.1 µM
CCC[C@H](NC(=O)[C@@H]1[C@@H](C(C)C)CCN1C(=O)[C@H](NC(=O)[C@H](NC(=O)c1cnccn1)C1CCCCC1)C(C)(C)C)C(=O)C(=O)NC1CC1,-,Hepatitis C virus,Ki,0.09 µM
C=CCNC(=O)C(=O)C(CCC)NC(=O)[C@H]1C(C(=O)[C@@H](NC(=O)[C@@H](NC(=O)[C@H](CCC(=O)O)NC(=O)[C@H](CCC(=O)O)NC(C)=O)C(C)C)C(C)C)NC(=O)N1Cc1ccccc1,-,-,Ki,1 µM
C=C[C@@H]1C[C@]1(NC(=O)[C@@H]1C[C@@H](Oc2cc(-c3ccccc3)nc3cc(OC)ccc23)CN1C(=O)[C@@H](NC(=O)OC(C)(C)C)C(C)(C)C)C(=O)NS(=O)(=O)c1ccccc1,-,BMS,IC50,<0.05 µM
C=CC1C[C@]1(NC(=O)[C@@H]1C[C@@H](Oc2cc(-c3ccccc3)nc3cc(OC)ccc23)CN1C(=O)[C@@H](NC(=O)OC(C)(C)C)C(C)(C)C)C(=O)NS(=O)(=O)c1nc(NC(C)=O)sc1C,-,BMS,IC50,<0.1 µM
C=CC1CC1(NC(=O)OC(C)(C)C)C(=O)N1C[C@H](Oc2cc(-c3ccccc3)nc3cc(OC)ccc23)C[C@H]1C(=O)N[C@]1(C(=O)NS(=O)(=O)C2CC2)C[C@H]1C=C,-,BMS,IC50,<0.5 µM
C=CC1C[C@]1(NC(=O)[C@@H]1C[C@@H](Oc2cc(-c3ccccc3)nc3cc(OC)ccc23)CN1C(=O)[C@@H](NC(=O)OC(C)(C)C)C(C)(C)C)C(=O)NS(=O)(=O)c1cc(Cl)c(Br)s1,-,BMS,IC50,<0.1 µM
CCC[C@H](NC(=O)[C@@H]1C[C@@H](OC(=O)N2CCc3ccccc3C2)CN1C(=O)[C@@H](NC(=O)[C@@H](NC(=O)[C@H](CNC(=O)OC)NC(=O)OC)C1CCCCC1)C(C)(C)C)C(=O)C(=O)NC1CC1,-,-,IC50,0.068 µM
CCCC(NC(=O)[C@@H]1C[C@@H](OC(=O)N2CCc3ccccc3C2)CN1C(=O)[C@H](NC(=O)[C@H](NC(=O)c1cnccn1)C(C)C)C(C)C)C(=O)C(=O)N[C@@H](C)C(=O)O,-,-,Ki,<0.2 µM
C=C[C@H]1C[C@@]1(NC(=O)[C@@H]1C[C@@H](Oc2cc(-c3ccccc3)nc3cc(OC)ccc23)CN1C(=O)[C@@H](NC(=O)OC(C)(C)C)C(C)(C)C)C(=O)NS(=O)(=O)C1(Cc2ccncc2)CC1,-,BMS,IC50,<0.05 µM
CC(C)(C)[C@H](NC(=O)[C@@H](NS(=O)(=O)c1cnccn1)C1CCCCC1)C(=O)N1C[C@H]2[C@@H]([C@H]1C(=O)NC(CC1CC1)C(=O)C(N)=O)C2(C)C,-,-,Ki,0.02 µM
CCC[C@H](NC(=O)[C@@H]1[C@@H](C(C)CC)CCN1C(=O)[C@H](NC(=O)[C@H](NC(=O)c1cnccn1)C1CCCCC1)C(C)(C)C)C(=O)C(=O)NC1CC1,-,Hepatitis C virus,Ki,0.1 µM
C=C[C@@H]1C[C@]1(NC(=O)C1C[C@@H](Oc2cc(-c3csc(NC4CCC4)n3)nc3cc(OC)ccc23)CN1C(=O)[C@@H](NC(=O)OC1CCCC1)C(C)(C)C)C(=O)O,-,-,IC50,<0.1 µM
C=CC1C[C@]1(NC(=O)[C@@H]1C[C@@H](Oc2cc(-c3ccccc3)nc3cc(OC)ccc23)CN1C(=O)[C@@H](NC(=O)OC(C)(C)C)C(C)(C)C)C(=O)NS(=O)(=O)c1cc(Br)c(Cl)s1,-,BMS,IC50,<0.1 µM
CCC[C@H](NC(=O)[C@@H]1[C@@H](C2CCCC2)CCN1C(=O)[C@H](NC(=O)[C@H](NC(=O)c1cnccn1)C1CCCCC1)C(C)(C)C)C(=O)C(=O)NC1CC1,-,Hepatitis C virus,Ki,0.25 µM
CC[C@H]1C[C@@]1(NC(=O)[C@@H]1C[C@@H](Oc2cc(-c3ccccc3)nc3cc(OC)ccc23)CN1C(=O)[C@H](CC1CCCCC1)NC(=O)OC(C)(C)C)C(=O)NS(C)(=O)=O,-,BMS,IC50,<5 µM
C=C(C)CC[C@H](CC(=C)[C@H](CC(=C)C)CC(=C)CCC(=O)O)C(=C)C[C@@H](Cc1ccccc1C)C(=C)C[C@H](C(=C)C[C@@H](CC(C)C)C(=C)C[C@@H](CCCC)C(=C)C(=C)C)C(C)(C)C,-,-,IC50,0.011 µM
C=CC1C[C@]1(NC(=O)[C@@H]1C[C@@H](Oc2cc(-c3ccccc3)nc3cc(OC)ccc23)CN1C(=O)[C@@H](NC(=O)OC(C)(C)C)C(C)(C)C)C(=O)NS(=O)(=O)c1ccc([N+](=O)[O-])s1,-,BMS,IC50,0.1–1 µM
C=C[C@@H]1C[C@]1(NC(=O)C1C[C@@H](Oc2cc(-c3csc(NC4CCCC4)n3)nc3cc(OC)ccc23)CN1C(=O)[C@@H](NC(=O)OC1CCCCC1)C(C)(C)C)C(=O)O,-,-,IC50,<0.1 µM
C=CCOC(=O)CNC(=O)C(=O)C(CCC)NC(=O)[C@H]1C(C(=O)[C@@H](NC(=O)[C@@H](NC(=O)[C@H](CCC(=O)OC(C)(C)C)NC(=O)[C@H](CCC(=O)OC(C)(C)C)NC(C)=O)C(C)C)C(C)C)NC(=O)N1Cc1ccccc1,-,-,Ki,>100 µM
Cc1cccc(NC(=O)c2c(O)cc(O)c([N+](=O)[O-])c2O)c1,HPLC,-,IC50,44.9 µg/mL
C=CCCCCCCCC1(S(=O)(=O)NC(=O)[C@]2(NC(=O)[C@@H]3C[C@@H](Oc4cc(-c5ccccc5)nc5cc(OC)ccc45)CN3C(=O)[C@@H](NC(=O)OC(C)(C)C)C(C)(C)C)C[C@@H]2C=C)CC1,-,BMS,IC50,<0.05 µM
Cc1ccc(NC(=O)c2c(O)cc(O)c([N+](=O)[O-])c2O)cc1,HPLC,-,IC50,24.5 µg/mL
C=C[C@@H]1C[C@]1(NC(=O)[C@@H]1C[C@@H](Oc2cc(-c3ccccc3)nc3cc(OC)ccc23)CN1C(=O)[C@@H](NC(=O)OC(C)(C)C)C(C)(C)C)C(=O)NS(=O)(=O)CC1CCC1,-,BMS,IC50,<0.5 µM
CC(=O)CC(NC(C)=O)C(=O)N[C@@H](CCC(=O)O)C(=O)NC(C(=O)N[C@@H](CCC(=O)O)C(=O)NC(CC1CCCCC1)C(=O)N[C@@H](CC(F)F)C(=O)O)C(c1ccccc1)c1ccccc1,-,-,Ki,0.021 µM
C=CCOC(=O)CNC(=O)C(=O)C(CCC)NC(=O)[C@H]1C(C(=O)[C@@H](NC(=O)[C@@H](NC(=O)[C@H](CCC(=O)O)NC(=O)[C@H](CCC(=O)O)NC(C)=O)C(C)C)C(C)C)NC(=O)N1Cc1ccccc1,-,-,Ki,1 µM
C=C[C@H]1C[C@@]1(NC(=O)[C@@H]1C[C@@H](Oc2cc(-c3ccccc3)nc3cc(OC)ccc23)CN1C(=O)[C@@H](NC(=O)OC(C)(C)C)C(C)C)C(=O)NS(=O)(=O)C1(CCOC)CC1,-,BMS,IC50,<0.05 µM
C=CC1CC1(NC(=O)C1C[C@@H](Oc2cc(-c3ccccc3)nc3cc(OC)ccc23)CN1C(=O)C(NC(=O)OC(C)(C)C)C(C)(C)C)C(=O)OCC,-,BMS,IC50,0.017 µM

For reference, 3 entries again:

SMILES	read by	strain	endpoint	result
CCC[C@H](NC(=O)[C@@H]1[C@@H](C2CCCC2)CCN1C(=O)[C@H](NC(=O)[C@H](NC(=O)c1cnccn1)C1CCCCC1)C(C)(C)C)C(=O)C(=O)NC1CC1	-	Hepatitis C virus	Ki	0.25 µM
C=CC1C[C@]1(NC(=O)[C@@H]1C[C@@H](Oc2cc(-c3ccccc3)nc3cc(OC)ccc23)CN1C(=O)[C@@H](NC(=O)OC(C)(C)C)C(C)(C)C)C(=O)NS(=O)(=O)c1sc(C)nc1C	-	BMS	IC50	<0.1 µM
COc1cc(O[C@@H]2C[C@@H](C(=O)NC3(C(=O)NS(=O)(=O)C4CC4)CC34CC4)N(C(=O)[C@@H](NC(=O)OC(C)(C)C)C(C)(C)C)C2)c2ccc(-c3ccccc3)cc2n1	-	BMS	IC50	<0.05 µM